In publication PMC9774897 (Antibiotics, 2022):
In brackets after ≈: the same amount, converted by molar mass. Non-standard residues stand in square brackets, D forms with d. Residues, ends and D or L forms follow the SMILES beside them.

Experiments:
[1] = system: INH-monoresistant M. tuberculosis
[2] = system: RF-monoresistant M. tuberculosis
[3] = system: INH-monoresistant M. tuberculosis; remark: listed apart in the source
[4] = system: RF-monoresistant M. tuberculosis; remark: listed apart in the source

## CC(C)[C@@H](NC(=O)[C@@H](CO)NC(=O)[C@@H](CCCNC(=N)N)NC(=O)[C@@H](CCCNC(=N)N)NC(=O)[C@@H](CCCNC(=N)N)NC(=O)[C@@H](CCCNC(=N)N)NC(=O)CN)C(=O)N[C@H](CCC(N)=O)C(=O)N[C@H](Cc1c[nH]c2ccccc12)C(=O)N[C@H](CS)C(=O)N[C@H](C)C(=O)O [D-hLF 1-11] (H-G[dR][dR][dR][dR][dS][dV][dQ][dW][dC][dA]-OH; N-terminus and C-terminus assumed)
[1]
  MIC, MODS Assay: 200 µg/mL (≈ 145 µM)
[2]
  MIC, MODS Assay: 200 µg/mL (≈ 145 µM)
[3]
  MIC, REMA: 100 µg/mL (≈ 72.7 µM)
[4]
  MIC, REMA: 100 µg/mL (≈ 72.7 µM)
